Measured values from several laboratories, pooled; numbers as filed in NIAID ChemDB.

All rows: target-level tests; agent: HIV-1; protein: Integrase; measure: IC50

ICn: concentration for n% inhibition.

CC(=O)Oc1cc(/C=C/S(=O)(=O)CS(=O)(=O)/C=C/c2cc(OC(C)=O)c(OC(C)=O)c(OC(C)=O)c2)cc(OC(C)=O)c1OC(C)=O ; method: 3′ processing ; result: 50 µM
C[C@H](Cn1cnc2c(N)ncnc21)OCP(=O)(O)OP(=O)(O)OP(=O)(O)O ; method: 3′ processing ; result: 65 µM
O=c1oc2c(O)c(O)cc3c(=O)oc4c(O)c(O)cc1c4c23 ; method: strand transfer / absorbance ; result: 90.23 µg/mL
Cc1cn([C@@H]2CO[C@H](COP(=O)(O)O[C@H]3C[C@H](n4ccc(N)nc4=O)O[C@@H]3COP(=O)(O)O)[C@H]2O)c(=O)[nH]c1=O ; method: strand transfer ; result: 58 µM
O=S(=O)(c1ccc(I)cc1)c1ccc(I)cc1 ; method: 3′ processing ; result: >100 µM
O=C(O)C(=O)CC(=O)c1ccc(N2CCOCC2)cc1 ; method: 3′ processing ; result: 100 µM
Nc1ncnc2c1ncn2[C@H]1CC[C@@H](COP(=O)(O)OP(=O)(O)OP(=O)(O)O)O1 ; method: 3′ processing ; result: 150 µM
O=C1c2c(ccc(O)c2O)CN1Cc1ccccc1 ; method: 3′ processing ; result: >333 µM
O=C(/C=C(\O)c1nn[nH]n1)c1ccc(Cc2ccc(F)cc2)o1 ; method: strand transfer ; result: 0.42 µg/mL
COc1cc(/C=C/S(=O)(=O)CS(=O)(=O)/C=C/c2cc(OC)c(OC(C)=O)c(OC(C)=O)c2)cc(OC(C)=O)c1OC(C)=O ; method: 3′ processing ; result: 30 µM
Cc1cn([C@H]2C[C@H](N=[N+]=[N-])[C@@H](COP(=O)(O)O)O2)c(=O)[nH]c1=O ; method: strand transfer ; result: 140 µM
O=C1c2c(ccc(O)c2O)CN1Cc1ccc(F)c(Cl)c1 ; method: 3′ processing ; result: 13 µM
NC(N)=Nc1ccc(S(=O)(=O)c2ccc(N=C(N)N)cc2)cc1 ; method: 3′ processing ; result: >100 µM
O=C1Sc2cc3ccccc3cc2C(=O)N2CSCC12 ; method: strand transfer ; result: 100 µM
COc1cc(/C=C/S(=O)(=O)CS(=O)(=O)/C=C/c2ccc(OC(C)=O)c(OC)c2)ccc1OC(C)=O ; method: 3′ processing ; result: >1000 µM
O=c1ccc(-c2ccc(C(F)(F)F)cc2)c(O)c(O)c1O ; method: strand transfer ; result: 120 µM
CO[C@@H]1O[C@@H](OC)[C@@](O)(C2C[C@]3(C)C4CCC=C5C(=O)OC[C@]54CC[C@H]3C(=O)O2)[C@@H]1O ; method: strand transfer / absorbance ; result: 36.82 µM
Cc1cn([C@H]2C[C@H](O)[C@@H](COP(=O)(O)O[C@H]3[C@H](n4cnc5c(N)ncnc54)CO[C@@H]3COP(=O)(O)O)O2)c(=O)nc1N ; method: strand transfer ; result: 50 µM
O=C1c2c(O)c(=O)n(C3CN4CCC3CC4)c(=O)n2CCN1Cc1ccc(F)cc1 ; method: strand transfer ; result: <10 µM
C=C(Cn1cnc2c(=O)[nH]c(N)nc21)OCP(=O)(O)OP(=O)(O)OP(=O)(O)O ; method: 3′ processing ; result: 63 µM
CN(C)C(=O)C(=O)N1CCOCC1Cn1c(=O)c(O)c2n(c1=O)CCN(Cc1ccc(F)cc1)C2=O ; method: strand transfer ; result: <10 µM
Nc1ncnc2c1ncn2[C@H]1CC[C@@H](CO)O1 ; method: 3′ processing ; result: >1000 µM
CN1CCN(C2(Cn3c(=O)c(O)c4n(c3=O)CCN(Cc3ccc(F)cc3)C4=O)CCCCC2)CC1 ; method: strand transfer ; result: <10 µM
CCOC(=O)[C@@H](Cc1ccc(O)c(O)c1)OC(=O)/C=C/c1ccc(O)c(O)c1/C=C/c1ccc(O)c(O)c1 ; method: ELISA ; result: 14.54 µg/mL
COC(=O)[C@@]1(O)C[C@@H](OC(=O)/C=C/c2ccc(O)c(O)c2)[C@H](O)[C@H](OC(=O)/C=C/c2cc(OC)c(O)c(OC)c2)C1 ; method: gel / radiometric ; result: 23.6 µM
O=C(/C=C/c1ccc(O)c(O)c1)OCCc1ccccc1 ; method: 3′ processing ; result: 220 µM
CCCCCCCCCc1cc(OC(=O)c2c(CCCCCCCCC)cc(O)cc2O[C@@H]2O[C@H](CO)[C@@H](O)[C@H](O)[C@H]2O)cc(O)c1C(=O)O ; method: strand transfer ; result: 68 µM
O=C(/C=C/c1ccc(O)c(O)c1/C=C/c1ccc(O)c(O)c1)O[C@H](Cc1ccc(O)c(O)c1)C(=O)O ; method: ELISA ; result: 13.69 µg/mL
C[C@@H]1CC[C@]23COC(=O)C2=CCCC3[C@@]1(C)C[C@@H](O)C1=CC(=O)OC1 ; method: strand transfer / absorbance ; result: 33.36 µM
Nc1nc2c(ncn2CCOCP(=O)(O)O)c(=O)[nH]1 ; method: 3′ processing ; result: 640 µM
CC(C)(C)OC(=O)C(C)(C)n1c(=O)c(O)c2n(c1=O)CCN(Cc1ccc(F)cc1)C2=O ; method: strand transfer ; result: <10 µM
CC(=O)NC1C(O[C@H]2CC[C@@]3(C)C(CC[C@]4(C)C3CC=C3C5CC(C)(C)CC[C@]5(C(=O)O)CC[C@]34C)C2(C)C)OC(CO)C(O)C1O ; method: absorbance ; result: 18.32 µM
CC(=O)Nc1cccc(-c2ccc(=O)c(O)c(O)c2O)c1 ; method: strand transfer ; result: 5.3 µM
N#CC(C#N)=NNc1ccc(S(=O)(=O)c2ccc(NN=C(C#N)C#N)cc2)cc1 ; method: strand transfer ; result: 21.9 µM
O=C1c2c(O)c(=O)n(C34CC5CC(CC(O)(C5)C3)C4)c(=O)n2CCN1Cc1ccc(F)cc1 ; method: strand transfer ; result: <10 µM
O=C1OC(=O)c2cc(S(=O)(=O)c3ccc4c(c3)C(=O)OC4=O)ccc21 ; method: 3′ processing ; result: 20.9 µM
O=C(/C=C/c1ccc(O)c2c1[C@H](C(=O)O)[C@@H](c1ccc(O)c(O)c1)O2)O[C@H](Cc1ccc(O)c(O)c1)C(=O)O ; result: 0.7 µM
Nc1ccn([C@@H]2CO[C@H](COP(=O)(O)O[C@H]3[C@H](n4cnc5c(N)ncnc54)CO[C@@H]3COP(=O)(O)O)[C@H]2O)c(=O)n1 ; method: 3′ processing ; result: >1000 µM
O=c1ccc(-c2ccsc2)c(O)c(O)c1O ; method: strand transfer ; result: 2.6 µM
C[C@@H]1CC[C@@]2(C)C(C(=O)O)=CC(=O)CC2[C@@]1(C)CCC1=CC(=O)OC1O ; method: strand transfer / absorbance ; result: >50 µM
O=S(=O)(SC(Cl)(Cl)Cl)c1cccc(S(=O)(=O)c2cccc(S(=O)(=O)SC(Cl)(Cl)Cl)c2)c1 ; method: strand transfer ; result: 21.3 µM
O=C(/C=C/c1ccc(O)c(O)c1)O[C@@H]1CC(O)(C(=O)O)C[C@@H](OC(=O)/C=C/c2ccc(O)c(O)c2)C1O ; method: strand transfer ; result: 0.63 µM
CC(=O)c1cc(S(=O)(=O)c2ccc(O)c(C(C)=O)c2)ccc1O ; method: strand transfer ; result: >100 µM
Nc1ncnc2c1ncn2[C@@H]1CO[C@H](COP(=O)(O)O)[C@H]1OP(=O)(O)OC[C@H]1O[C@@H](n2ccc(=O)[nH]c2=O)[C@H](O)[C@@H]1O ; method: 3′ processing ; result: >1000 µM

A second listing of 5 rows from above:

smiles | method | result
O=C(/C=C(\O)c1nn[nH]n1)c1ccc(Cc2ccc(F)cc2)o1 | strand transfer | 0.42 µg/mL
C[C@@H]1CC[C@]23COC(=O)C2=CCCC3[C@@]1(C)C[C@@H](O)C1=CC(=O)OC1 | strand transfer / absorbance | 33.36 µM
CCOC(=O)[C@@H](Cc1ccc(O)c(O)c1)OC(=O)/C=C/c1ccc(O)c(O)c1/C=C/c1ccc(O)c(O)c1 | ELISA | 14.54 µg/mL
Nc1ncnc2c1ncn2[C@@H]1CO[C@H](COP(=O)(O)O)[C@H]1OP(=O)(O)OC[C@H]1O[C@@H](n2ccc(=O)[nH]c2=O)[C@H](O)[C@@H]1O | 3′ processing | >1000 µM
O=S(=O)(SC(Cl)(Cl)Cl)c1cccc(S(=O)(=O)c2cccc(S(=O)(=O)SC(Cl)(Cl)Cl)c2)c1 | strand transfer | 21.3 µM

Lines come from different laboratories, so protocols vary.